Measurements reported in PMC8706149 (International Journal of Molecular Sciences, 2021).

Tests used:
POPC/POPG liposomes = assay: Steady-state fluorescence in the presence of POPC/POPG liposomes; format: binding; conditions: POPC/POPG 4:1 LUVs
SDS micelles = assay: Steady-state fluorescence in the presence of SDS micelles; format: binding; conditions: 25 mM SDS in 10 mM NaP pH 7.4, peptide 2 µM, 25 °C
POPC liposomes = assay: Steady-state fluorescence in the presence of POPC liposomes; format: binding; conditions: POPC LUVs
[1] = Quantum-yield determination; format: physicochemical
[2] = Steady-state fluorescence in buffer and water/organic solvent mixtures; format: physicochemical; conditions: 25 °C
[3] = lipid-to-peptide ratio 200, 10 mM NaP pH 7.4
[4] = emission maximum, lipid-to-peptide ratio 200, 10 mM NaP pH 7.4, peptide 2.2–[…]

Q: Which “Blue-shift with respect to the λmax in NaP, POPC + POPG” value (POPC/POPG liposomes; [3]) does the source give for “1-[2-(maleimido)ethyl]-4-[5-(4-methoxyphenyl)-2-oxazolyl]pyridinium-labeled GKY20 [PyMPO-(C)GKY20]” here?
A: 28 nm

Q: What about the “λmax (nm) POPC + POPG” value (POPC/POPG liposomes; [4]) of the same substance?
A: 535 nm

Q: And the “Blue-shift with respect to the λmax in NaP, SDS (25 mM)” value (SDS micelles)?
A: 7 nm

Q: And the “λmax (nm) SDS (25 mM)” value (SDS micelles; emission maximum)?
A: 556 nm

Q: And the “Blue-shift with respect to the λmax in NaP, POPC” value (POPC liposomes; [3])?
A: 22 nm

Q: And the “λmax (nm) POPC” value (POPC liposomes; [4])?
A: 541 nm

Q: And the “QY variation relative to NaP pH 7.4, IPA 50%” value ([1]; ratio QY in isopropanol:NaP (1:1) / QY in NaP pH 7.4)?
A: 4.66

Q: What about the “QY NaP pH 7.4” value ([1]; relative quantum yield, 10 mM phosphate pH 7.4, standard fluorescein (coumarin-6 for mLuc), errors ≤ 5%) of the same substance?
A: 0.080

Q: What about the “QY IPA 50%” value ([1]; relative quantum yield, isopropanol:NaP pH 7.4 (1:1, v/v), errors ≤ 5%) of the same substance?
A: 0.373

Q: What about the “Blue-shift with respect to the λmax in NaP, IPA 50%” value ([2]; NaP:isopropanol 50% v:v, peptide 2 µM) of the same substance?
A: 5 nm

Q: What about the “Blue-shift with respect to the λmax in NaP, MeOH 50%” value ([2]; NaP:methanol 50% v:v, peptide 2 µM) of the same substance?
A: 0 nm

Q: What about the “λmax (nm) NaP pH 7.4” value ([2]; emission maximum, 10 mM sodium phosphate pH 7.4, peptide 2 µM, ex. 330 nm (Luc, mLuc), 363 nm (aLuc), 408 nm (PyMPO)) of the same substance?
A: 563 nm

Q: And the “λmax (nm) IPA 50%” value ([2]; emission maximum, NaP:isopropanol 50% v:v, peptide 2 µM)?
A: 558 nm

Q: What about the “λmax (nm) MeOH 50%” value ([2]; emission maximum, NaP:methanol 50% v:v, peptide 2 µM) of the same substance?
A: 563 nm
